The structures appear in SMILES notation.

This test deals with Septoria tritici. In words: Use Example M7: activity against Septoria leaf spot pathogen in the microtiter test (Septtr), relative growth. The note with it: 31 ppm, measured at 405 nm on day 7 after inoculation, active compound-free control 100%.

In the case of `CCSc1ncnn1C[C@]1(c2ccc(F)cc2)O[C@H]1c1ccccc1Cl` (relative stereo) [I-18, trans-1-[3-(2-chlorophenyl)-2-(4-fluorophenyl)oxiranylmethyl]-5-ethylsulfanyl-1H-[1,2,4]triazole], the “growth (relative growth in % of the pathogens)” value is 11%.

For the origin of these results see patent US20120088662A1, “FUNGICIDAL MIXTURES” (BASF SE, priority 2009, published 2012).
